Experimental data published in publication PMC4598760 (Biomolecules, 2015).

System: influenza virus A/Mem71 (H3N1)

Substance: Neu5Gcα2-6Galβ1-4Glcβ-Biotin [OS-20]
- virus binding to surface-bound glycan (in words): does not bind
